Results of unrelated studies side by side (data: NIAID ChemDB).

Shared fields: target-level tests

Neighbouring rows are from separate reports.

structure	strain or isolate	target	organism	changes	endpoint	tested at	read by	value
CN(Cc1cnc2nc(N)nc(N)c2n1)c1ccc(C(=O)N[C@H](CCCCN)C(=O)O)cc1	RH	DHFR	Toxoplasma gondii	-	IC50	-	-	>0.08 µM
O=C(Nc1nnc(NCCc2cnc[nH]2)s1)c1c(Cl)cccc1Cl	-	Polymerase	Human cytomegalovirus	-	inhibition	25 µM	-	65.6%
Cc1cn([C@@H]2O[C@H](CO[Si](C)(C)C(C)(C)C)[C@@]3(OS(=O)(=O)C=C3N)[C@H]2O[Si](C)(C)C(C)(C)C)c(=O)[nH]c1=O	-	Reverse transcriptase	HIV	RT-N137S	IC50	-	nucleotide incorporation / radiometric	1 µM
C=CCN(C(=O)OCc1ccc([N+](=O)[O-])cc1)C1CCN(CC[C@](C)(CN(C)S(=O)(=O)c2ccccc2)c2ccccc2)CC1	-	CCR5	-	CCR5-Y251A	fold resistance	-	radiometric	10.59
Cc1c[nH]c(=S)[nH]c1=O	RH	Uracil phosphoribosyltransferase	Toxoplasma gondii	-	inhibition	2000 µM	-	<10%
Nc1nc2c(ncn2[C@H]2CC[C@@H](COP(=O)(O)OP(=O)(O)OP(=O)(O)O)O2)c(=O)[nH]1	-	Reverse transcriptase	HIV	RT-N137Y	IC50	-	nucleotide incorporation / radiometric	1.2 µM
CC1(C)N=C(N)N=C(N)N1c1cccc(CCc2ccccc2)c1	RH	DHFR	Toxoplasma gondii	-	IC50	-	-	0.01 µM
Cc1cn([C@@H]2O[C@H](CO[Si](C)(C)C(C)(C)C)C3(OS(=O)(=O)C=C3N)[C@H]2O[Si](C)(C)C(C)(C)C)c(=O)n(C)c1=O	-	Reverse transcriptase	HIV	RT-N137D	fold resistance	-	nucleotide incorporation / radiometric	0.75
O=C(Nc1nnc(NCCc2cccs2)s1)c1ccc2c(c1)C(=O)OC2=O	-	Polymerase	Human cytomegalovirus	-	IC50	-	-	<25 µM
Nc1ccnc(=O)[nH]1	RH	Uracil phosphoribosyltransferase	Toxoplasma gondii	-	inhibition	2000 µM	-	<5%
CCCCCCCC/C=C/CCCCCCCC(=O)Nc1nnc(NCCSCC)s1	-	Polymerase	Human cytomegalovirus	-	IC50	-	-	<25 µM
Cn1ccc(=O)[nH]c1=O	RH	Uracil phosphoribosyltransferase	Toxoplasma gondii	-	IC50	-	-	>2000 µM
O=C(C1CCCCC1)N1C[C@H](CN2CCC(c3ccccc3)CC2)[C@@H](c2ccccc2)C1	-	CCR5	-	CCR5-Y108A	fold resistance	-	radiometric	42.17
c1cnccn1	RH	Uracil phosphoribosyltransferase	Toxoplasma gondii	-	inhibition	2000 µM	-	<5%
CC(C)C(=O)N1C[C@H](CN2CCC(c3ccccc3)CC2)[C@@H](c2ccccc2)C1	-	CCR5	-	CCR5-E283A	fold resistance	-	radiometric	>83.3
Cn1cc(Br)c(=O)[nH]c1=O	RH	Uracil phosphoribosyltransferase	Toxoplasma gondii	-	inhibition	2000 µM	-	<5%
CCSCCNc1nnc(NC(=O)c2ccc(I)cc2)s1	-	Polymerase	Human cytomegalovirus	-	IC50	-	-	<25 µM
CC1(C)N=C(N)N=C(N)N1c1ccc(CCCCc2ccccc2)cc1	RH	DHFR	Toxoplasma gondii	-	IC50	-	-	0.026 µM
O=c1[nH]cc(I)c(=O)[nH]1	RH	Uracil phosphoribosyltransferase	Toxoplasma gondii	-	inhibition	2000 µM	-	<5%
Cc1cc(C(=O)O)cc(C)c1N(C)Cc1cnc2nc(N)nc(N)c2n1	RH	DHFR	Toxoplasma gondii	-	IC50	-	-	0.28 µM
O=c1cc(O)nc[nH]1	RH	Uracil phosphoribosyltransferase	Toxoplasma gondii	-	inhibition	2000 µM	-	<5%

The last 2 rows once more:

Cc1cc(C(=O)O)cc(C)c1N(C)Cc1cnc2nc(N)nc(N)c2n1 ; strain or isolate: RH ; target: DHFR ; organism: Toxoplasma gondii ; endpoint: IC50 ; value: 0.28 µM
O=c1cc(O)nc[nH]1 ; strain or isolate: RH ; target: Uracil phosphoribosyltransferase ; organism: Toxoplasma gondii ; endpoint: inhibition ; tested at: 2000 µM ; value: <5%

Percent inhibition refers to the dose given; in toxicity tests it is the harm to the cells. Fold resistance has wild type as its base. Blank or dashed fields: not listed here. ICn is the concentration giving n% inhibition.